Source: the NIST ThermoML archive (doi:10.1016/j.jct.2018.07.024)

Experiment: activity coefficient (dimensionless); xn = mol fraction of the nth substance listed
Settings: 101.33 kPa, Liquid, Chromatography, x1 = 0

| Structure (SMILES) | activity coefficient (318.15 K) | activity coefficient (328.15 K) | activity coefficient (338.15 K) | activity coefficient (348.15 K) | activity coefficient (358.15 K) | activity coefficient (368.15 K) |
| --- | --- | --- | --- | --- | --- | --- |
| CCCC(=O)OC [methyl butanoate] + CCCCCCCC[N+](CC)(CC)CC.O=S(=O)(F)[N-]S(=O)(=O)F | 1.01 ± 0.06 | 1.08 ± 0.07 | 1.14 ± 0.07 | 1.2 ± 0.08 | 1.26 ± 0.08 | 1.32 ± 0.09 |
| CCCCCC [hexane] + CCCCCCCC[N+](CC)(CC)CC.O=S(=O)(F)[N-]S(=O)(=O)F | 8.96 ± 0.61 | 8.92 ± 0.61 | 8.88 ± 0.61 | 8.84 ± 0.6 | 8.8 ± 0.6 | 8.76 ± 0.6 |
| C=CCCCCC [1-heptene] + CCCC[N+]1(C)CCCC1.O=S(=O)(F)[N-]S(=O)(=O)F | 17.5 ± 1.2 | 17.5 ± 1.2 | 17.4 ± 1.2 | 17.4 ± 1.2 | 17.3 ± 1.2 | 17.3 ± 1.2 |
| C1COCCO1 [1,4-dioxane] + CCCCCCCC[N+](CC)(CC)CC.O=S(=O)(F)[N-]S(=O)(=O)F | 0.56 ± 0.04 | 0.6 ± 0.042 | 0.642 ± 0.044 | 0.683 ± 0.046 | 0.724 ± 0.048 | 0.765 ± 0.05 |
| CCC(C)O (stereo not drawn) [butan-2-ol] + CCCC[N+]1(C)CCCC1.O=S(=O)(F)[N-]S(=O)(=O)F | 3.05 ± 0.21 | 2.89 ± 0.2 | 2.74 ± 0.19 | 2.62 ± 0.18 | 2.51 ± 0.17 | 2.41 ± 0.16 |
| CCCCCCCCC [nonane] + CCCC[N+]1(C)CCCC1.O=S(=O)(F)[N-]S(=O)(=O)F | 79.3 ± 5.4 | 74.5 ± 5.1 | 70.4 ± 4.8 | 66.8 ± 4.6 | 63.6 ± 4.4 | 60.7 ± 4.2 |
| CCC(=O)CC [pentan-3-one] + CCCCCCCC[N+](CC)(CC)CC.O=S(=O)(F)[N-]S(=O)(=O)F | 0.653 ± 0.045 | 0.699 ± 0.047 | 0.744 ± 0.049 | 0.79 ± 0.051 | 0.837 ± 0.054 | 0.881 ± 0.056 |
| C1=CCCCC1 [cyclohexene] + CCCC[N+]1(C)CCCC1.O=S(=O)(F)[N-]S(=O)(=O)F | 6.46 ± 0.44 | 6.55 ± 0.45 | 6.62 ± 0.45 | 6.72 ± 0.46 | 6.81 ± 0.46 | 6.87 ± 0.47 |
| CCCOCCC [dipropyl ether] + CCCC[N+]1(C)CCCC1.O=S(=O)(F)[N-]S(=O)(=O)F | 9.23 ± 0.63 | 9.4 ± 0.64 | 9.58 ± 0.65 | 9.73 ± 0.66 | 9.88 ± 0.67 | 10 ± 0.7 |
| CCCCCO [pentan-1-ol] + CCCCCCCC[N+](CC)(CC)CC.O=S(=O)(F)[N-]S(=O)(=O)F | 2.73 ± 0.19 | 2.58 ± 0.18 | 2.46 ± 0.17 | 2.34 ± 0.16 | 2.24 ± 0.15 | 2.15 ± 0.15 |
| CCCc1ccccc1 [propylbenzene] + CCCC[N+]1(C)CCCC1.O=S(=O)(F)[N-]S(=O)(=O)F | 3.3 ± 0.22 | 3.48 ± 0.24 | 3.65 ± 0.25 | 3.81 ± 0.26 | 3.99 ± 0.27 | 4.15 ± 0.28 |
| CC#N [acetonitrile] + CCCCCCCC[N+](CC)(CC)CC.O=S(=O)(F)[N-]S(=O)(=O)F | 0.535 ± 0.039 | 0.554 ± 0.04 | 0.572 ± 0.041 | 0.59 ± 0.042 | 0.607 ± 0.042 | 0.624 ± 0.043 |
| CC(C)CC(C)(C)C [2,2,4-trimethylpentane] + CCCCCCCC[N+](CC)(CC)CC.O=S(=O)(F)[N-]S(=O)(=O)F | 12.5 ± 0.9 | 12.4 ± 0.8 | 12.3 ± 0.8 | 12.2 ± 0.8 | 12.1 ± 0.8 | 12 ± 0.8 |
| CCCc1ccccc1 [propylbenzene] + CCCCCCCC[N+](CC)(CC)CC.O=S(=O)(F)[N-]S(=O)(=O)F | 1.53 ± 0.1 | 1.63 ± 0.11 | 1.73 ± 0.12 | 1.83 ± 0.12 | 1.92 ± 0.13 | 2.01 ± 0.14 |
| C1CCOC1 [tetrahydrofuran] + CCCCCCCC[N+](CC)(CC)CC.O=S(=O)(F)[N-]S(=O)(=O)F | 0.599 ± 0.042 | 0.637 ± 0.044 | 0.674 ± 0.046 | 0.712 ± 0.047 | 0.75 ± 0.049 | 0.787 ± 0.051 |
| c1ccsc1 [thiophene] + CCCC[N+]1(C)CCCC1.O=S(=O)(F)[N-]S(=O)(=O)F | 0.844 ± 0.054 | 0.9 ± 0.057 | 0.958 ± 0.06 | 1.02 ± 0.06 | 1.08 ± 0.07 | 1.13 ± 0.07 |
| C=CCCC [1-pentene] + CCCCCCCC[N+](CC)(CC)CC.O=S(=O)(F)[N-]S(=O)(=O)F | 4.01 ± 0.27 | 4.08 ± 0.28 | 4.13 ± 0.28 | 4.2 ± 0.29 | 4.25 ± 0.29 | 4.31 ± 0.29 |

| Structure (SMILES) | activity coefficient (318.15 K) | activity coefficient (328.15 K) | activity coefficient (338.15 K) | activity coefficient (348.15 K) | activity coefficient (358.15 K) | activity coefficient (368.15 K) |
| --- | --- | --- | --- | --- | --- | --- |
| C1COCCO1 [1,4-dioxane] + CCCC[N+]1(C)CCCC1.O=S(=O)(F)[N-]S(=O)(=O)F | 0.726 ± 0.048 | 0.783 ± 0.051 | 0.841 ± 0.054 | 0.899 ± 0.057 | 0.958 ± 0.06 | 1.02 ± 0.06 |
| C1CCOC1 [tetrahydrofuran] + CCCC[N+]1(C)CCCC1.O=S(=O)(F)[N-]S(=O)(=O)F | 0.92 ± 0.058 | 0.981 ± 0.062 | 1.04 ± 0.07 | 1.11 ± 0.07 | 1.17 ± 0.07 | 1.24 ± 0.08 |
| C=C(C)c1ccccc1 [(1-methylethenyl)benzene] + CCCC[N+]1(C)CCCC1.O=S(=O)(F)[N-]S(=O)(=O)F | 1.78 ± 0.12 | 1.93 ± 0.13 | 2.09 ± 0.14 | 2.25 ± 0.15 | 2.42 ± 0.16 | 2.59 ± 0.18 |
| CCOC(C)(C)C [2-ethoxy-2-methylpropane] + CCCC[N+]1(C)CCCC1.O=S(=O)(F)[N-]S(=O)(=O)F | 8.58 ± 0.59 | 8.87 ± 0.61 | 9.16 ± 0.62 | 9.43 ± 0.64 | 9.73 ± 0.66 | 10 ± 0.7 |
| C=CCCCCC [1-heptene] + CCCCCCCC[N+](CC)(CC)CC.O=S(=O)(F)[N-]S(=O)(=O)F | 6.27 ± 0.43 | 6.37 ± 0.43 | 6.46 ± 0.44 | 6.55 ± 0.45 | 6.64 ± 0.45 | 6.71 ± 0.46 |
| C1CCCCCCC1 [cyclooctane] + CCCCCCCC[N+](CC)(CC)CC.O=S(=O)(F)[N-]S(=O)(=O)F | 7.38 ± 0.5 | 7.25 ± 0.49 | 7.14 ± 0.49 | 7.03 ± 0.48 | 6.93 ± 0.47 | 6.83 ± 0.47 |
| COC(C)(C)C [2-methoxy-2-methylpropane] + CCCCCCCC[N+](CC)(CC)CC.O=S(=O)(F)[N-]S(=O)(=O)F | 1.98 ± 0.13 | 2.09 ± 0.14 | 2.2 ± 0.15 | 2.31 ± 0.16 | 2.42 ± 0.16 | 2.53 ± 0.17 |
| CC(C)CO [2-methyl-1-propanol] + CCCCCCCC[N+](CC)(CC)CC.O=S(=O)(F)[N-]S(=O)(=O)F | 2.46 ± 0.17 | 2.31 ± 0.16 | 2.18 ± 0.15 | 2.06 ± 0.14 | 1.95 ± 0.13 | 1.86 ± 0.13 |
| Cc1ccccc1 [toluene] + CCCCCCCC[N+](CC)(CC)CC.O=S(=O)(F)[N-]S(=O)(=O)F | 0.832 ± 0.054 | 0.89 ± 0.06 | 0.951 ± 0.06 | 1.01 ± 0.06 | 1.07 ± 0.07 | 1.13 ± 0.07 |
| C=COC(C)=O [vinyl acetate] + CCCC[N+]1(C)CCCC1.O=S(=O)(F)[N-]S(=O)(=O)F | 1.29 ± 0.08 | 1.36 ± 0.09 | 1.43 ± 0.09 | 1.5 ± 0.1 | 1.57 ± 0.1 | 1.64 ± 0.11 |
| CC(C)CC(C)(C)C [2,2,4-trimethylpentane] + CCCC[N+]1(C)CCCC1.O=S(=O)(F)[N-]S(=O)(=O)F | 42.3 ± 2.9 | 41.1 ± 2.8 | 40 ± 2.7 | 39 ± 2.7 | 38 ± 2.6 | 37.3 ± 2.6 |
| C=Cc1ccccc1 [styrene] + CCCCCCCC[N+](CC)(CC)CC.O=S(=O)(F)[N-]S(=O)(=O)F | 0.647 ± 0.044 | 0.701 ± 0.047 | 0.755 ± 0.05 | 0.81 ± 0.052 | 0.867 ± 0.055 | 0.922 ± 0.058 |
| CCOC(C)=O [ethyl acetate] + CCCCCCCC[N+](CC)(CC)CC.O=S(=O)(F)[N-]S(=O)(=O)F | 0.902 ± 0.057 | 0.952 ± 0.06 | 1 ± 0.06 | 1.06 ± 0.07 | 1.11 ± 0.07 | 1.16 ± 0.07 |
| CCCCCC [hexane] + CCCC[N+]1(C)CCCC1.O=S(=O)(F)[N-]S(=O)(=O)F | 28.1 ± 1.9 | 27.3 ± 1.9 | 26.8 ± 1.8 | 26.2 ± 1.8 | 25.7 ± 1.8 | 25.3 ± 1.7 |
| CCc1ccccc1 [ethylbenzene] + CCCCCCCC[N+](CC)(CC)CC.O=S(=O)(F)[N-]S(=O)(=O)F | 1.17 ± 0.07 | 1.25 ± 0.08 | 1.32 ± 0.09 | 1.4 ± 0.09 | 1.47 ± 0.1 | 1.54 ± 0.1 |
| CCO [ethanol] + CCCCCCCC[N+](CC)(CC)CC.O=S(=O)(F)[N-]S(=O)(=O)F | 1.98 ± 0.13 | 1.87 ± 0.13 | 1.78 ± 0.12 | 1.7 ± 0.11 | 1.63 ± 0.11 | 1.56 ± 0.1 |

Numbers after ± are expanded uncertainties.
